Source: patent US5432264A (priority 1987, dated 1995)

System: herpes simplex virus type 1
Type: cell-based

B1: 3-des-OH-cystatin C: Recombinant 120 amino acid human cystatin C with non-hydroxylated Pro at position 3, expressed in E. coli (protein, UniProt P01034 27-146, looked up)
Cystatin-C: SSPGKPPRLVGGPMDASVEEEGVRRALDFAVGEYNKASNDMYHSRALQVVRARKQIVAGVNYFLDVELGRTTCTKTQPNLDNCPFHDQPHLKRKAFCSFQIYAVPWQGTMTLSKSTCQDA
modifications: non-hydroxylated Pro3
notes: Recombinant 120 amino acid human cystatin C with non-hydroxylated Pro at position 3, expressed in E. coli
concentration required for inhibition of viral replication to background levels: about 0.13 mM
